Article PMC4317638 (Emerging Microbes & Infections, 2014)

Tested on: Ebola VLP entry into HeLa cells

## Spiramycin
read-out: Block Ebola VLP entry IC50
  IC50: 4.32 µM

## CN1CCN(CCCN2c3ccccc3Sc3ccc(S(=O)(=O)N(C)C)cc32)CC1 [Thioproperazine]
  Selectivity Index: >116 fold
